Anti-infective test results gathered from many reports (values: NIAID ChemDB through PubChem).

Shared fields: growth or infection tests; species: Hepatitis C virus; measure: EC50

ECn is the concentration giving n% inhibition of infection, replication or growth.

{"SMILES": "Cc1cc(-c2nnc(NC3CC(O)C3)o2)nc2c(C(C)(C)C)cc(OCC(F)(F)F)cc12", "strain": "GT 1b H94N", "cell line": "Huh7", "value": "0.741 µM"}
{"SMILES": "CCOC(=O)c1ccc(NCc2cc3ccccc3oc2=O)cc1", "cell line": "Ava5", "value": "100 µM"}
{"SMILES": "CCCCCOc1ccc(N(C(=O)OC)c2nc(-c3cccnc3)cs2)cc1C(F)(F)F", "value": "<1 µM"}
{"SMILES": "COC(=O)N[C@@H](C(=O)N1CCC[C@@H]1c1ncc(-c2ccc(-c3ccc(-c4cnc([C@H]5CCCN5C(=O)[C@H](NC(=O)OC)c5ccccc5)[nH]4)nn3)cc2)[nH]1)c1ccccc1", "strain": "1b", "value": "0.001–0.099 µM"}
{"SMILES": "CCC[C@@H](NC(=O)c1ccc2c(c1)nc(-c1ccoc1)n2C1CCCCC1)C(=O)Nc1ccc(/C=C/C(=O)O)cc1", "cell line": "Huh7", "value": "≤5 µM"}
{"SMILES": "O=c1oc2ccccc2cc1CNc1cc([N+](=O)[O-])cc([N+](=O)[O-])c1", "cell line": "Ava5", "value": "100 µM"}
{"SMILES": "Nc1nc(N2CCOCC2)c2nc(-c3ccc(C(F)(F)F)cc3Cl)cnc2n1", "cell line": "Huh7", "value": "1–10 µM"}
{"SMILES": "CN(C)[C@@H](C(=O)N1CCC[C@@H]1c1ncc(-c2ccc(-c3cnc(-c4cnc([C@H]5CCCN5C(=O)[C@@H](c5ccccc5)N(C)C)[nH]4)cn3)cc2)[nH]1)c1ccccc1", "strain": "1b", "value": "0.001–0.099 µM"}
{"SMILES": "Cc1c(C(=O)N[C@H](C)C(=O)Nc2ccc(/C=C/C(=O)O)cc2)ccc2c1nc(-c1ccoc1)n2C1CCCCC1", "cell line": "Huh7", "value": "5–50 µM"}
{"SMILES": "COC(=O)N[C@H](C(=O)N1CCC[C@@H]1c1ncc(-c2ccc(-c3ccc(-c4cnc([C@@]5(C)CCCN5C(=O)[C@@H](Nc5noc(N)n5)C(C)C)[nH]4)cc3)cc2)[nH]1)C(C)C", "strain": "1b", "value": "0.00001–0.000999 µM"}
{"SMILES": "C[C@H]1CCC[C@H](C)C1n1c(-c2cccs2)nc2cc(C(=O)NC3(C(=O)Nc4ccc(/C=C/C(=O)O)cc4)CCCC3)ccc21", "cell line": "Huh7", "value": "≤5 µM"}
{"SMILES": "CCCCCCCCOc1ccc(N(C(=O)CO)c2nc(-c3cccnc3)c(F)s2)cc1C(F)(F)F", "value": "<1 µM"}
{"SMILES": "Cc1c(C(=O)O)sc2ccc(NC(=O)C3(NC(=O)c4ccc5c(c4)nc(-c4ccoc4)n5C4CCCCC4)CCCC3)cc12", "cell line": "Huh7", "value": "≤5 µM"}
{"SMILES": "COc1cc(NCc2cc3ccccc3oc2=O)cc(OC)c1OC", "cell line": "Ava5", "value": "12 µM"}
{"SMILES": "Cc1cc(-c2nnc(N[C@@H]3CCC[C@H](O)C3)o2)nc2c(C(C)(C)C)cc(OCC(F)(F)F)cc12", "strain": "GT 1b H94N", "cell line": "Huh7", "value": "0.0055 µM"}
{"SMILES": "C[C@H]1CCC[C@H](C)C1n1c(-c2ccoc2)nc2cc(C(=O)NC3(C(=O)Nc4ccc(/C=C/C(=O)O)cc4)CCCC3)ccc21", "cell line": "Huh7", "value": "≤5 µM"}
{"SMILES": "CC(C)COc1ccc(N(C(N)=O)c2nc(-c3ccc(F)c(F)c3)cs2)cc1C(F)(F)F", "value": "<1 µM"}
{"SMILES": "CCOc1nc(N)nc2ncc(-c3ccc(S(C)(=O)=O)cc3)nc12", "cell line": "Huh7", "value": "1–10 µM"}
{"SMILES": "CCCCCOc1ccc(N(C)c2nc(-c3ccc(CN4CCN(C)CC4)nc3)cs2)cc1C(F)(F)F", "value": "<1 µM"}
{"SMILES": "N#Cc1cccc(-c2cnc3nc(N)nc(N4CCOCC4)c3n2)c1", "cell line": "Huh7", "value": "1–10 µM"}
{"SMILES": "O=C(O)/C=C/c1ccc(NC(=O)C2(NC(=O)c3ccc4c(c3)nc(-c3ccoc3)n4C3CCCCC3)CCCC2)cc1", "cell line": "Huh7", "value": "≤5 µM"}
{"SMILES": "Nc1nc(N2CCOCC2)c2nc(-c3cccc(Cl)c3)cnc2n1", "cell line": "Huh7", "value": "0.3–1 µM"}
{"SMILES": "CCCCCCCCOc1ccc(N(C(=O)C(C)OC(C)=O)c2nc(-c3ccc(C)nc3)cs2)cc1", "value": "<1 µM"}
{"SMILES": "Nc1nc(N2CCOCC2)c2nc(-c3cccc(F)c3F)cnc2n1", "cell line": "Huh7", "value": "0.3–1 µM"}
{"SMILES": "O=c1oc2ccccc2cc1CNc1ccc(Br)cc1Cl", "cell line": "Ava5", "value": "45 µM"}
{"SMILES": "CC(C)(O)CCOc1nc(N)nc2ncc(-c3ccc(F)cc3)nc12", "cell line": "Huh7", "value": "1–10 µM"}
{"SMILES": "COC(=O)N[C@H](C(=O)N1CCC[C@@H]1c1ncc(-c2cnc(-c3ccc(-c4nc([C@H]5CCCN5C(=O)[C@@H](NC(=O)OC)C5CC5)[nH]c4C(F)(F)F)cc3)nc2)[nH]1)C1CC1", "strain": "1b", "value": "0.00001–0.000999 µM"}
{"SMILES": "Nc1nc(N2CCOCC2)c2nc(-c3ccc(F)cc3Cl)cnc2n1", "cell line": "Huh7", "value": "0.3–1 µM"}
{"SMILES": "COC(=O)N[C@@H](C)C(=O)N1CCC[C@@H]1C1=NCC(c2cnc(-c3ccc(-c4cnc([C@H]5CCCN5C(=O)[C@H](C)NC(=O)OC)[nH]4)c(F)c3)nc2)=N1", "strain": "1b", "value": "0.00001–0.000999 µM"}

Repeating the final 2 entries:

SMILES | strain | cell line | value
Nc1nc(N2CCOCC2)c2nc(-c3ccc(F)cc3Cl)cnc2n1 |  | Huh7 | 0.3–1 µM
COC(=O)N[C@@H](C)C(=O)N1CCC[C@@H]1C1=NCC(c2cnc(-c3ccc(-c4cnc([C@H]5CCCN5C(=O)[C@H](C)NC(=O)OC)[nH]4)c(F)c3)nc2)=N1 | 1b |  | 0.00001–0.000999 µM

Blank or dashed fields: not listed here. Two numbers with a dash give a range or band. Conditions beyond the fields shown may differ between rows.